Test system: Sindbis virus TE/5'2J-GFP
Test: percent infected (GFP+ in RFP+ ISG-expressing cells); higher = more infection (less antiviral activity)
Experimental: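 Confirmatory testing of 87 ISGs. Triplicate wells of BHK/HA-Zeo (control) or BHK/NZAP-Zeo (ZAP) cells were transduced with lentiviruses co-expressing a human ISG plus TagRFP, then infected 48 h later with SINV TE/5'2J-GFP (moi 5). The % GFP+ cells among RFP+ cells was measured by flow cytometry at 8 h post infection. Fluc lentivirus served as control. Three independent experiments.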
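Note: Interferon-defective BHK-21 derivatives, ZAP line overexpressing the rat ZAP N-terminal zinc finger domain fused to Zeocin resistance, GFP scored within live singlet TagRFP+ cells.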

MQRADSEQPSKRPRCDDSPRTPSNTPSAEADWSPGLELHPDYKTWGPEQVCSFLRRGGFEEPVLLKNIRENEITGALLPCLDESRFENLGVSSLGERKKLLSYIQRLVQIHVDTMKVINDPIHGHIELHPLLVRIIDTPQFQRLRYIKQLGGGYYVFPGASHNRFEHSLGVGYLAGCLVHALGEKQPELQISERDVLCVQIAGLCHDLGHGPFSHMFDGRFIPLARPEVKWTHEQGSVMMFEHLINSNGIKPVMEQYGLIPEEDICFIKEQIVGPLESPVEDSLWPYKGRPENKSFLYEIVSNKRNGIDVDKWDYFARDCHHLGIQNNFDYKRFIKFARVCEVDNELRICARDKEVGNLYDMFHTRNSLHRRAYQHKVGNIIDTMITDAFLKADDYIEITGAGGKKYRISTAIDDMEAYTKLTDNIFLEILYSTDPKLKDAREILKQIEYRNLFKYVGETQPTGQIKIKREDYESLPKEVASAKPKVLLDVKLKAEDFIVDVINMDYGMQEKNPIDHVSFYCKTAPNRAIRITKNQVSQLLPEKFAEQLIRVYCKKVDRKSLYAARQYFVQWCADRNFTKPQDGDVIAPLITPQKKEWNDSTSVQNPTRLREASKSRVQLFKDDPM [SAMHD1]
Conditions	percent infected [%]
experiment: confirmatory screen 1, BHK/HA-Zeo (control)	78.5
experiment: confirmatory screen 1, BHK/NZAP-Zeo (ZAP)	56.9
experiment: confirmatory screen 2, BHK/HA-Zeo (control)	93.61
experiment: confirmatory screen 2, BHK/NZAP-Zeo (ZAP)	93.88
experiment: confirmatory screen 3, BHK/HA-Zeo (control)	91.54
experiment: confirmatory screen 3, BHK/NZAP-Zeo (ZAP)	91.24

From the supplement of paper PMC3353916
